A mixed list of measured activities; the numbers were collected in NIAID ChemDB.

All rows: growth or infection tests; species: Herpes simplex virus 2; cells: E6SM; measure: EC50

Conditions beyond the fields shown may differ between rows. ECn: concentration that inhibits the pathogen or its effect by n%. An empty or dashed field is not shown.

SMILES,strain,method,value
Cc1ccn2c(C3OCCO3)cnc2c1,G,,>1000 µM
C=C(N=CC)c1nc(-c2cccc(C)c2)n([C@@H]2O[C@H](CO)[C@@H](O)[C@H]2O)n1,G,cytopathic effect,>200 µg/mL
Nc1nc(N)c(Br)c(OCCOCP(=O)(O)O)n1,G,cytopathic effect,700 µM
CC1(CO)CCC(Cn2nnc3c(N)nc(N)nc32)C1(C)C,G,cytopathic effect,300 µg/mL
COC(=O)[C@]1(C)CCC[C@]2(C)c3ccc4[nH]c(C)nc4c3CCC12,,plaque count,>4 µg/mL
Nc1nc2c(ncn2C[C@@H](CO)OCP(=O)(O)O)c(=O)[nH]1,G 196 LYONS,cytopathic effect,1.9 µM
Nc1nc2c(ncn2[C@H]2CO[C@@H](CO)C2)c(=O)[nH]1,G,cytopathic effect,4 µg/mL
CC=NC(=N)c1nc(-c2cccc(C)c2)n(Cc2ccccc2)n1,G,cytopathic effect,>4 µg/mL
O=c1ccn(C2CC(O[N+](=O)[O-])C(CO)O2)c(=O)[nH]1,G,cytopathic effect,>400 µg/mL
CC1(C)[C@@H](CCO)C[C@H]1n1nnc2c(N)nc(N)nc21,G,cytopathic effect,150 µg/mL
COC(=O)[C@]1(C)CCC[C@]2(C)c3cc(Br)c4[nH]ccc4c3CCC12,,plaque count,>4 µg/mL
Nc1ncc2ncn(C[C@@H](CF)OCP(=O)(O)O)c2n1,G 196 LYONS,cytopathic effect,>600 µM
O=[N+]([O-])c1cc([C@H]2C[C@H](O)[C@@H](CO)O2)c(F)cc1F,196,cytopathic effect,>400 µg/mL
C[C@@H](Cn1cnc2c(=O)[nH]c(N)nc21)OCP(=O)(O)O,G 196 LYONS,cytopathic effect,66 µM
N#Cc1cncc([C@@H]2O[C@H](CO)[C@H](O)[C@@H]2O)c1,G,cytopathic effect,≥100 µg/mL
Nc1cc(OCCOCP(=O)(O)O)nc(N)n1,G,cytopathic effect,33 µM
Nc1nc(N)c2ncn([C@H]3CO[C@H](CO)[C@@H](O)C3)c2n1,G,cytopathic effect,>20 µg/mL
COC(=O)[C@]1(C)CCC[C@]2(C)c3ccc4nc(-c5ccccc5)c(-c5ccccc5)nc4c3CCC12,,plaque count,>4 µg/mL
Cc1cc([C@H]2C[C@H](O)[C@@H](CO)O2)c(F)cc1F,LYONS,cytopathic effect,>400 µg/mL
Cc1cccn2c(C3OCCO3)cnc12,G,,>1000 µM
O=c1[nH]c(=O)n(C2CC(O[N+](=O)[O-])C(CO)O2)cc1F,G,cytopathic effect,>400 µg/mL
OC[C@H]1O[C@@H](c2cc(Br)c(F)cc2F)C[C@@H]1O,LYONS,cytopathic effect,>400 µg/mL
Nc1ccnc(O[C@H]2CO[C@H](CO)[C@@H](O)C2)n1,G,cytopathic effect,>20 µg/mL
COc1ncnc2c1cnn2Cc1cn(CCCCO)nn1,G,,>400 µg/mL
CC=NC(=N)c1nc(-c2cccc(C)c2)n(C/C=C/c2ccccc2)n1,G,cytopathic effect,>4 µg/mL
O=C(CCC1CCCCC1)N(O)c1ccc(Cl)cc1,G,cytopathic effect,>16 µg/mL
Nc1nc(Cl)c2ccn([C@H]3CO[C@@H](CO)C3)c2n1,G,cytopathic effect,300 µg/mL
C[C@H](Cn1cnc2c(=O)[nH]c(N)nc21)OCP(=O)(O)O,G 196 LYONS,cytopathic effect,66 µM
COc1cc(F)c([C@H]2C[C@H](O)[C@@H](CO)O2)cc1[N+](=O)[O-],G,cytopathic effect,>400 µg/mL
C=C(N=CC)c1nc(-c2ccc(C)cc2)n(C2O[C@H](CO)[C@@H](O)[C@H](O)[C@H]2O)n1,G,cytopathic effect,>200 µg/mL
Nc1nc2c(ncn2[C@@H]2C=C[C@H](CO)[C@@H](O)C2)c(=O)[nH]1,196,cytopathic effect,0.07 µg/mL
CC1(C)[C@@H](CCO)C[C@H]1n1cnc2c(N)nc(N)nc21,G,cytopathic effect,>400 µg/mL
N#Cc1cncc([C@@H]2O[C@H](CO)[C@@H](O)[C@@H]2O)c1,G,cytopathic effect,≥100 µg/mL
O=c1[nH]c(=O)n([C@H]2C[C@H](O)[C@@H](CO)O2)cc1/C=C/Br,G,cytopathic effect,>80 µg/mL
Nc1ncnc2c1ccn2[C@@H]1C[C@H](O)[C@@H](O)[C@H]1O,TYPE G,,>400 µg/mL
CC=NC(=N)c1nc(-c2ccc(OC)cc2)n(C/C=C/c2ccccc2)n1,G,cytopathic effect,>10 µg/mL
Cc1cc([C@H]2C[C@H](O)[C@@H](CO)O2)c(F)cc1Cl,196,cytopathic effect,>400 µg/mL
C[C@H](Cn1cnc2c(N)nc(N)nc21)OCP(=O)(O)O,G 196 LYONS,cytopathic effect,232 µM
OC[C@H]1O[C@H](c2cc(Cl)c(F)cc2F)C[C@@H]1O,196,cytopathic effect,>400 µg/mL
CC=NC(=N)c1nc(-c2ccc(C)cc2)n(C/C=C/c2ccccc2)n1,G,cytopathic effect,>4 µg/mL
NC1CSCCN2CCc3c([nH]c4ccccc34)[C@H]12,G,cytopathic effect,2 µg/mL
NC(=S)c1cncc([C@H]2O[C@H](CO)[C@@H](O)[C@@H]2O)c1,G,cytopathic effect,≥100 µg/mL
O=c1ccn([C@@H]2O[C@H](CO)[C@](O)(C(F)(F)F)[C@H]2O)c(=O)[nH]1,G,cytopathic effect,>400 µg/mL
Nc1ncnc2c1ncn2[C@H]1CO[C@H](CO)[C@@H](O)C1,G,cytopathic effect,>20 µg/mL
CC(C)CS[C@@H]1C=C[C@H](n2cnc3c(N)ncnc32)C1,G,cytopathic effect,>16 µg/mL
OC[C@H]1O[C@H](c2cncc(Br)c2)[C@@H](O)[C@@H]1O,G,cytopathic effect,≥100 µg/mL
CC1(CO)CCC(Cn2cnc3c(Cl)nc(N)nc32)C1(C)C,G,cytopathic effect,>100 µg/mL
CC1(C)[C@@H](CCO)C[C@H]1n1nnc2c(N)ncnc21,G,cytopathic effect,100 µg/mL
COC(=O)[C@]1(C)CCC[C@]2(C)c3cc(Br)c4nc(C(F)(F)F)[nH]c4c3CCC12,,plaque count,>4 µg/mL
OC[C@H]1O[C@H](c2ccc(F)cc2F)C[C@@H]1O,G,cytopathic effect,>400 µg/mL
Nc1nc2c(ncn2C[C@@H](CF)OCP(=O)(O)O)c(=O)[nH]1,G 196 LYONS,cytopathic effect,218 µM
Cc1ccn2c(C3OCCS3)cnc2c1,G,,>1000 µM
OCCCCn1cc(Cn2ncc3c(NCc4ccccc4)ncnc32)nn1,G,,>400 µg/mL
Cc1cn([C@@H]2O[C@H](CO)[C@](O)(C(F)(F)F)[C@H]2O)c(=O)[nH]c1=O,G,cytopathic effect,100 µg/mL
CC1(CO)CCC(Cn2nnc3c(=O)[nH]c(N)nc32)C1(C)C,G,cytopathic effect,>200 µg/mL
NC(=O)c1cncc([C@H]2O[C@H](CO)[C@@H](O)[C@@H]2O)c1,G,cytopathic effect,≥100 µg/mL
Cc1cccn2c(C3SCCS3)cnc12,G,,>1000 µM
O=c1[nH]cnc2c1cnn2Cc1cn(CCCCO)nn1,G,,>400 µg/mL
O=C(CC1CCCCC1)N(O)c1ccc(Cl)cc1,G,cytopathic effect,48 µg/mL

For reference, 9 entries again:

SMILES | strain | method | value
NC(=O)c1cncc([C@H]2O[C@H](CO)[C@@H](O)[C@@H]2O)c1 | G | cytopathic effect | ≥100 µg/mL
N#Cc1cncc([C@@H]2O[C@H](CO)[C@@H](O)[C@@H]2O)c1 | G | cytopathic effect | ≥100 µg/mL
O=c1[nH]c(=O)n([C@H]2C[C@H](O)[C@@H](CO)O2)cc1/C=C/Br | G | cytopathic effect | >80 µg/mL
C[C@@H](Cn1cnc2c(=O)[nH]c(N)nc21)OCP(=O)(O)O | G 196 LYONS | cytopathic effect | 66 µM
Nc1nc2c(ncn2C[C@@H](CF)OCP(=O)(O)O)c(=O)[nH]1 | G 196 LYONS | cytopathic effect | 218 µM
C=C(N=CC)c1nc(-c2cccc(C)c2)n([C@@H]2O[C@H](CO)[C@@H](O)[C@H]2O)n1 | G | cytopathic effect | >200 µg/mL
CC1(C)[C@@H](CCO)C[C@H]1n1nnc2c(N)nc(N)nc21 | G | cytopathic effect | 150 µg/mL
OC[C@H]1O[C@H](c2ccc(F)cc2F)C[C@@H]1O | G | cytopathic effect | >400 µg/mL
OCCCCn1cc(Cn2ncc3c(NCc4ccccc4)ncnc32)nn1 | G |  | >400 µg/mL